Pooled drug test results. Numbers come from NIAID ChemDB, via PubChem.

All rows: growth or infection tests; agent: Candida albicans

ECn is the concentration giving n% inhibition of infection, replication or growth.

smiles	read by	conditions	measure	strain or isolate	result
Cc1ccc(-c2c3c(N)c4c(nc3nc3c2c(C)nn3-c2ccccc2)CCC4)cc1	broth dilution / absorbance	-	MIC100	CCC 130	125 µg/mL
CC(C)(C)c1ccc(COC(Cn2ccnc2)c2ccc(Cl)cc2Cl)cc1	-	-	MIC	CA7	128 µg/mL
CCCCCCCCOc1ccc(C(=O)NC2C[C@@H](O)[C@@H](O)NC(=O)C3[C@@H](O)[C@@H](C)CN3C(=O)C(C(C)O)NC(=O)C([C@H](O)[C@@H](O)c3ccc(O)cc3)NC(=O)C3C[C@@H](O)CN3C(=O)C(C(C)O)NC2=O)cc1	-	-	MIC	MY1055	0.5 µg/mL
Nc1[nH]c(=O)ncc1F	-	-	MIC50	50 isolates	0.16 µg/mL
Fc1ccc(COc2ccc(C(c3ccc4ccccc4c3)n3ccnc3)cc2)c(F)c1.O=[N+]([O-])O	-	-	Mean MIC	17 strains	≥256 µg/mL
C[C@@H](N1CCN(Cc2cn(Cc3ccc(Cl)cc3)c3c(F)cccc23)CC1)[C@](O)(Cn1cncn1)c1ccc(F)cc1F	resazurin	-	MIC80	ATCC 36082	0.125 µg/mL
CCCCCOc1ccc(-c2ccc(-c3ccc(C(=O)N[C@H]4CCCNC(=O)C5C[C@H](N=C(N)N)CN5C(=O)C(C(C)O)NC(=O)C(CCc5ccc(O)cc5)NC(=O)C5C[C@@H](O)CN5C(=O)C(C(C)O)NC4=O)cc3)cc2)cc1	-	-	MIC	ATCC 62376	0.39 µg/mL
C[C@@H](c1ncncc1F)[C@](O)(Cn1cncn1)c1ccc(F)cc1F	broth dilution	pH 5	MIC	10 isolates	0.25 µg/mL
Fc1ccccc1COc1ccc(C(c2cccc3ccccc23)n2ccnc2)cc1.O=[N+]([O-])O	-	-	Mean MIC	17 strains	≥256 µg/mL
CCC(C)n1ncn(-c2ccc(N3CCN(c4ccc(OC[C@H]5CO[C@](Cn6cncn6)(c6ccc(Cl)cc6Cl)O5)cc4)CC3)cc2)c1=O	-	-	MIC90	Fluconazole-resistant	2 µg/mL
C=CCSS(=O)CC=C	broth dilution	-	MIC50	Clinical Isolate 2605	0.39 µg/mL
CCC(C)n1ncn(-c2ccc(N3CCN(c4ccc(OC[C@H]5CO[C@](Cn6cncn6)(c6ccc(Cl)cc6Cl)O5)cc4)CC3)cc2)c1=O	-	-	MFC90	12 isolates	>8 µg/mL
Cc1ccc(C(Cn2ccnc2)OCc2ccc(C(C)(C)C)cc2)cc1	-	-	MIC	Y0109	>128 µg/mL
CCCCCCCCCCCCCCCCCC(=O)NC1CC(O)C(O)NC(=O)C2C(O)C(C)CN2C(=O)C(C(C)O)NC(=O)C(C(O)C(O)c2ccc(O)cc2)NC(=O)C2CC(O)CN2C(=O)C(C(C)O)NC1=O	-	-	MIC	MY1208	0.5 µg/mL
COC(=O)[C@H]1[C@@H]2C[C@@H](O[C@@H]3O[C@H](C)[C@@H](O)[C@H](N)[C@@H]3O)/C=C/C=C/C=C/C=C/C=C/C=C/C=C/[C@H](C)[C@@H](O)[C@H](C)[C@H](C)OC(=O)C[C@H](O)C[C@H](O)[C@@H](O)CC[C@H](O)C[C@H](O)C[C@](O)(C[C@@H]1O)O2	broth dilution	pH 7	MIC	10 isolates	0.5 µg/mL
c1ccc(C(Cn2ccnc2)OCc2cccc3ccccc23)cc1	-	-	MIC	CDCB385	128 µg/mL
Cc1c(O)cccc1C(=O)N[C@@H](CSc1ccccc1)[C@H](O)CN1C[C@H]2CCCC[C@H]2C[C@H]1C(=O)NC(C)(C)C	-	-	MIC	I136	32 µg/mL
CC(=O)N1CCN(c2ccc(OC[C@H]3CO[C@](Cn4ccnc4)(c4ccc(Cl)cc4Cl)O3)cc2)CC1	broth dilution	pH 7	EC90	10 isolates	0.03 µg/mL
Cc1ccc(C(Cn2ccnc2)OC/C=C/c2ccccc2)cc1	-	-	MIC	3M	128 µg/mL
Clc1ccccc1COc1ccc(C(c2ccc(-c3ccccc3)cc2)n2ccnc2)cc1.O=[N+]([O-])O	-	-	MIC90	16 strains	≥256 µg/mL
N=C(N)c1ccc2nc(-c3ccc(-c4nc5ccc(C(=N)N)cc5[nH]4)[nH]3)[nH]c2c1	-	-	MFC	Isolate CA2256 fluconazole-resistant	0.78 µg/mL
Clc1ccc(COc2ccc(C(c3nccc4ccccc34)n3ccnc3)cc2)cc1.O=[N+]([O-])O	-	-	Mean MIC	16 strains	≥256 µg/mL
C[C@H]1[C@H](O)[C@@H](C)/C=C/C=C/C=C/C=C/C=C/C=C/C=C/[C@H](O[C@@H]2O[C@H](C)[C@@H](O)[C@H](N)[C@@H]2O)C[C@@H]2O[C@](O)(C[C@@H](O)C[C@@H](O)CC[C@H](O)[C@@H](O)C[C@@H](O)CC(=O)O[C@H]1C)C[C@H](O)[C@H]2C(=O)O	-	-	MIC	A25942 (amphotericin B-resistant)	4 µg/mL
Cc1c(Sc2ccccc2)[n+](=O)c2cc(C(F)(F)F)ccc2n1[O-]	-	-	MIC	Clinical isolate 24	15.6 µg/mL
CCCCCOc1ccc(-c2ccc(-c3ccc(C(=O)N[C@H]4CCCNC(=O)C5C[C@H](NCC(=O)O)CN5C(=O)C(C(C)O)NC(=O)C(CCc5ccc(O)cc5)NC(=O)C5C[C@@H](O)CN5C(=O)C(C(C)O)NC4=O)cc3)cc2)cc1	-	-	MIC	ATCC 62376	0.78 µg/mL
Cc1ccc(C(Cn2ccnc2)OCc2ccc(-c3ccccc3)cc2)cc1	-	-	MIC	CA7	128 µg/mL
C[C@@H](N1CCN(Cc2cn(Cc3ccc(F)cc3F)c3cc(Cl)ccc23)CC1)[C@](O)(Cn1cncn1)c1ccc(F)cc1F	resazurin	-	MIC80	ATCC 36082	0.125 µg/mL
Nc1[nH]c(=O)ncc1F	broth dilution	pH 5	MIC	10 isolates	0.25 µg/mL
COc1ccc(-c2c3c(N)c4c(nc3nc3c2c(C)nn3-c2ccccc2)CCCCC4)cc1	broth dilution / absorbance	-	MIC100	ATCC 10231	250 µg/mL
CC(/C=C/C=C(\C)C(O)C(C)C(=O)O[C@H]1C[C@@H](C)C=C2C=C[C@]3(C)O[C@@H](O)CC(=O)[C@]3(C)[C@H]21)=C\C=C\C(=O)O	-	-	MIC	AC3411	0.78 µg/mL
O[C@](Cn1cncn1)(Cn1cnc(/C=C/c2ccc(OCC(F)(F)C(F)F)cc2)n1)c1ccc(F)cc1F	-	-	MIC	Isolate 03-99	0.03 µg/mL
CCCCCOc1ccc(-c2ccc(-c3ccc(C(=O)N[C@H]4CCCNC(=O)C5C[C@H](N)CN5C(=O)C(CCCN(C)C)NC(=O)C(CCc5ccc(O)cc5)NC(=O)C5C[C@@H](O)CN5C(=O)C(C(C)O)NC4=O)cc3)cc2)cc1	-	-	MIC	ATCC 62376	0.39 µg/mL
C[C@@H](N1CCN(Cc2cn(Cc3ccc(F)cc3F)c3ccc(C#N)cc23)CC1)[C@](O)(Cn1cncn1)c1ccc(F)cc1F	resazurin	-	MIC80	ATCC 36082	0.125 µg/mL
Cc1ccc(-c2c3c(N)c4c(nc3nc3c2c(C)nn3-c2ccccc2)CCCCC4)cc1	broth dilution / absorbance	-	MIC100	CCC 126	125 µg/mL
CCCCCOc1ccc(-c2ccc(-c3ccc(C(=O)N[C@H]4CCCNC(=O)C5C[C@H](N)CN5C(=O)C(CCC[N+](C)(C)C)NC(=O)C(CCc5ccc(O)cc5)NC(=O)C5C[C@@H](O)CN5C(=O)C(C(C)O)NC4=O)cc3)cc2)cc1	-	-	MIC	ATCC CCH442	0.2 µg/mL
CCOc1cc2c(cc1F)n([O-])c(C)c(S(=O)(=O)c1ccccc1)[n+]2=O	-	-	MIC	Clinical isolate 1	62.5 µg/mL
c1ccc(Cc2ccc(C(c3nccc4ccccc34)n3ccnc3)cc2)cc1	-	-	Mean MIC	44 strains	14.8 µg/mL
Cc1c(Sc2ccccc2)[n+](=O)c2cc(Cl)ccc2n1[O-]	-	-	MIC	Clinical isolate 10	31.25 µg/mL
CCC(C)c1ccc(Cn2cc(CN3CCN([C@H](C)[C@](O)(Cn4cncn4)c4ccc(F)cc4F)CC3)c3ccccc32)cc1	resazurin	-	MIC80	ATCC 36082	8 µg/mL
Cc1c(S(=O)(=O)c2ccccc2)[n+](=O)c2cc(Cl)ccc2n1[O-]	-	-	MIC	Clinical isolate 18	7.8 µg/mL
Clc1ccc(C(Cn2ccnc2)OCc2cccc3ccccc23)c(Cl)c1	-	-	MIC	CDCB385	128 µg/mL
Cc1ccc(-c2c3c(N)c4c(nc3nc3c2c(C)nn3-c2ccccc2)CCCC4)cc1	broth dilution / absorbance	-	MIC100	CCC 129	62.5 µg/mL
C[C@@H](N1CCN(Cc2cn(Cc3ccc(F)cc3)c3ccccc23)CC1)[C@](O)(Cn1cncn1)c1ccc(F)cc1F	resazurin	-	MIC80	ATCC MYA-1003	16 µg/mL
CC(C)(C)c1ccc(COC(Cn2ccnc2)c2ccc(Cl)cc2)cc1	-	-	MIC	5M	>128 µg/mL
C[C@@H](c1nc(-c2ccc(C#N)cc2)cs1)[C@](O)(Cn1cnnc1)c1ccc(F)cc1F	-	-	MIC90	34 isolates	0.03 µg/mL
Clc1ccc(C(Cn2ccnc2)OC/C=C/c2ccccc2)cc1	-	-	MIC	Y0109	>128 µg/mL
C=CCc1ccc(O)c(OC)c1	turbidity	-	MIC90	2281	475 µg/mL
CCCCCOc1ccc(-c2ccc(-c3ccc(C(=O)N[C@H]4CCCNC(=O)[C@@H]5C[C@H](N)CN5C(=O)[C@@H]([C@H](C)O)NC(=O)C(CCc5ccc(O)cc5)NC(=O)[C@@H]5C[C@@H](O)CN5C(=O)[C@H]([C@@H](C)O)NC4=O)cc3)cc2)cc1	-	-	MIC	ATCC CCH442	6.25 µg/mL
CCC(C)CC(C)CCCCCCCCC(=O)N[C@H]1C[C@@H](O)[C@H](NCCN)NC(=O)[C@@H]2[C@@H](O)CCN2C(=O)[C@H]([C@H](O)CCN)NC(=O)[C@H]([C@H](O)[C@@H](O)c2ccc(O)cc2)NC(=O)[C@@H]2C[C@@H](O)CN2C(=O)[C@H]([C@@H](C)O)NC1=O	-	-	MIC90	10 isolates azole-resistant	0.4 µg/mL
Cc1nn(-c2ccccc2)c2nc3nc4c(c(N)c3c(-c3ccc(Cl)cc3)c12)CCCC4	broth dilution / absorbance	-	MIC100	ATCC 10231	250 µg/mL

Again, the opening 7 rows:

smiles,read by,conditions,measure,strain or isolate,result
Cc1ccc(-c2c3c(N)c4c(nc3nc3c2c(C)nn3-c2ccccc2)CCC4)cc1,broth dilution / absorbance,-,MIC100,CCC 130,125 µg/mL
CC(C)(C)c1ccc(COC(Cn2ccnc2)c2ccc(Cl)cc2Cl)cc1,-,-,MIC,CA7,128 µg/mL
CCCCCCCCOc1ccc(C(=O)NC2C[C@@H](O)[C@@H](O)NC(=O)C3[C@@H](O)[C@@H](C)CN3C(=O)C(C(C)O)NC(=O)C([C@H](O)[C@@H](O)c3ccc(O)cc3)NC(=O)C3C[C@@H](O)CN3C(=O)C(C(C)O)NC2=O)cc1,-,-,MIC,MY1055,0.5 µg/mL
Nc1[nH]c(=O)ncc1F,-,-,MIC50,50 isolates,0.16 µg/mL
Fc1ccc(COc2ccc(C(c3ccc4ccccc4c3)n3ccnc3)cc2)c(F)c1.O=[N+]([O-])O,-,-,Mean MIC,17 strains,≥256 µg/mL
C[C@@H](N1CCN(Cc2cn(Cc3ccc(Cl)cc3)c3c(F)cccc23)CC1)[C@](O)(Cn1cncn1)c1ccc(F)cc1F,resazurin,-,MIC80,ATCC 36082,0.125 µg/mL
CCCCCOc1ccc(-c2ccc(-c3ccc(C(=O)N[C@H]4CCCNC(=O)C5C[C@H](N=C(N)N)CN5C(=O)C(C(C)O)NC(=O)C(CCc5ccc(O)cc5)NC(=O)C5C[C@@H](O)CN5C(=O)C(C(C)O)NC4=O)cc3)cc2)cc1,-,-,MIC,ATCC 62376,0.39 µg/mL

Conditions beyond the fields shown may differ between rows. MIC50, MIC90 and the like: level of inhibition, or share of isolates inhibited. Blank or dashed fields: not listed here.